Assay [1] deals with middle domain of human poly(A)-binding protein-interacting protein 1 (Paip1M, residues 78-296) (human) (UniProt Q9H074). The assay can be described thus: BLI.
For assay [2], the target named is middle domain of human Paip1 (Paip1M, residues 78-296) (human) (UniProt Q9H074). The assay can be described thus: BLI.

Regarding “SARS-CoV-2 SUD-core (nsp3 residues 413-676, SUD-N and SUD-M) (domain or fragment)”, the Kd – broadly, the constant that tells how readily two partners part at equilibrium – in assay [1] was found to be 18 µM.
On to “SARS-CoV-2 SUD-core-CC (nsp3 413-676 with L516C and Y647C) (domain or fragment)”, for which, in assay [2], the Kd amounted to 7.2 µM; the koff – broadly, the rate constant with which the complex falls apart – stood at 0.011 s⁻¹; the kon (as a rule, a measure of how fast the partners come together) amounted to 1500 M⁻¹ s⁻¹.

These data come from PMC10326071 (2023).
